Patent publication US6841368B1, “Enzymatic production of difructose dianhydride IV from sucrose and relevant enzymes and genes coding for them” (priority 1999, dated 2005)

Format: biochemical, A. ureafaciens K2032
Details: purified enzyme
Description: A. ureafaciens K2032 was inoculated in a selective broth containing levan as a major carbon source and cultured at 30° C. for 72 hours in an incubator. Investigation into the growth and levan fructotransferase activity of the bacteria provided the knowledge that the largest enzyme activity is obtained after 10 hours of the incubation. From the culture incubated for 10 hours, the enzyme was purified (FIG. 5). In this regard, the purification was achieved by successively using acetone precipitation, ion exchange chromatography (DEAE 650-M and Mono Q), and gel filtration chromatography, resulting in producing levan fructotransferase with a specific activity of 2269 U/mg protein at an amount of 1.1 mg at a yield of 29.8% (Table 8).
The purified enzyme was 51,000 in molecular weight as measured by SDS-PAGE while being measured to have a molecular weight of 96,000 by gel filtration chromatography. Thus, it was identified as being a dimer in aqueous conditions. […] Also, it was of optimal activity at 55° C. […] Whereas being inhibited by Mn^2+, Fe^2+ and Hg^2+, the activity of the enzyme was enhanced by […] and Ca^2+.
The newly isolated levan fructotransferase structural gene is composed of 1566 bp which corresponds to 521 aa. […]

B1: levan fructotransferase: enzyme purified from A. ureafaciens K2032 that produces DFA IV from levan; SEQ ID NO: 1 (protein)
chain: MTPAISRRAVLQGAGAGALALIFGGAVPPAARASAPGSLRAVYHMTPPSGWLCDPQRPVTTHGAYQLYYLHSDQNNGPGGWDHASTTDGVAFTHHGTVMPLRPDFPVWSGSAVVGTANTAGFGAGAVVALATQPTDGVRKYQEQYLYWSTDGGFTFTALPDPVIVNTDGRAATTPAEIENAEWFRDPKIHWDTARGEWVCVIGRLRYAAFYTSPNLRDWTLRRNFDYPNHALGGIECPDLFEITADDGTRHWVLAASMDAYGIGLPMTYAYWTGTWDGEQFHADDLTPQWLDWGWDWYAAVTWPSIDAPETKRLAIAWMNNWKYAARDVPTDASDGYNGQNSIVRELRLARQPGGWYTLLSTPVAALTNYVTATTTLPDRTVDGSAVLPWNGRAYEIELDIAWDTATNVGISVGRSPDGTRHTNIGKYGADLYVDRGPSDLAGYSLAPYSRAAAPIDPGARSVHLRILVDTQSVEVFVNAGHTVLSQQVHFAEGDTGISLYTDGGPAHFTGIVVREIGQAI
modifications: Arthrobacter ureafaciens K2032
Temperature of optimal activity: 55 °C | pH of optimal activity: ~6.0
